Target: Ad.WT.HCVpro (wild type HCV NS3•4A protease fused with SEAP) (Hepatitis C virus genotype 1a, UniProt P27958)
Assay: HCV protease mouse model: SEAP in serum, wild type HCV protease adenovirus
Details: 300 mg/kg orally twice a day; 10^9.5 IFU/mice Ad.WT.HCVpro; serum 24 hours post-infection

`CCC[C@H](NC(=O)[C@@H]1[C@H]2CCC[C@H]2CN1C(=O)[C@@H](NC(=O)[C@@H](NC(=O)c1cnccn1)C1CCCCC1)C(C)(C)C)C(=O)C(=O)NC1CC1` [VX-950] was tested, and the “fold reduction in the SEAP secretion in the serum compared to untreated controls” value was 27 fold.
